Anti-infective test results gathered from many reports (values: NIAID ChemDB through PubChem).

Shared fields: tests in culture; organism: HIV-1; read-out: fold resistance

Neighbouring rows are from separate reports.

smiles	strain or isolate	mutations	cell line	method	value
COC(=O)Oc1ccc(NC(=O)C2=C(C)OCCS2)cc1C(=O)OC(C)C	PYR-resistant (RT Y181C)	RT-Y181C	CEM	syncytia	12.9
Cc1cc(S(N)(=O)=O)ccc1NC(=O)COc1ccccc1C(=O)c1cc(Cl)cc(C#N)c1	-	RT-K103N	HeLa MAGI + HeLa	β-galactosidase	2
Cc1cc(C#N)cc(C(=O)c2cc(Cl)ccc2OCC(=O)Nc2cnc(S(N)(=O)=O)cc2C)c1	HXB2	RT-V106I Y181C	HeLa + HELA CD4+	β-galactosidase	~10
CCN1c2ncc(CCOc3ccc(-c4cnc[nH]4)cc3C)cc2C(=O)N(C)c2cccnc21	-	RT-K103N Y181C	C8166	p24	1
COc1ccccc1C(=O)Nc1ccc(Cl)c(C(=O)OC(C)C)c1	UC10-resistant (RT Y181C K101E)	RT-Y181C K101E	CEM + CEM-SS	cytopathic effect / XTT	>21.5
C[C@@H]1CCO[C@H]2Cn3cc(C(=O)NCc4ccc(F)cc4F)c(=O)c(O)c3C(=O)N12	NL4-3	T97A E138K G140S Q148H	CEM-GXR	GFP	66.2
CCN1c2ncc(CCOc3ccc(C(=O)Nc4nc(CC(=O)O)cs4)cc3C)cc2C(=O)N(C)c2cccnc21	-	RT-K103N Y181C	C8166	p24	>1
CCCC1=C(C(=O)Nc2ccc(Cl)c(C(=O)OC)c2)SCCO1	Nevirapine-resistant (RT V106A)	RT-V106A	CEM	syncytia	>13.3
CC(C)OC(=O)c1cc(NC(=S)OCC2(C)COC2)ccc1Cl	-	RT-V106A	CEM	syncytia	>1.07
O=C1Nc2ccc(F)c(F)c2[C@@](C#CC2CC2)(C(F)(F)F)N1	-	RT-Y188L	-	-	83.3
C[C@@H]1CCO[C@H]2Cn3cc(C(=O)NCc4ccc(F)cc4F)c(=O)c(O)c3C(=O)N12	-	L74M/V75I	TZM-bl	luciferase / luminescence	0.5
Cc1occc1C(=S)Nc1ccc(Cl)c(/C=N/OC(C)(C)C)c1	4xAZT(RT-D67N K70R T215Y K219Q)	RT-D67N K70R T215Y K219Q	CEM + CEM-SS	cytopathic effect / XTT	0.5
CCN1C(=O)c2c(O)c(=O)c(C(=O)NCc3ccc(F)c(Cl)c3F)cn2[C@H]2CCOC[C@H]21	-	G140S/Q148R	MT-2	luminescence	1.8
CCCC1=C(C(=O)Nc2ccc(Cl)c(C(=O)OCC)c2)SCCO1	Nevirapine-resistant (RT V106A)	RT-V106A	CEM	syncytia	>66.7
CC(C)=CCOc1cc(NC(=S)c2ccsc2C)ccc1Cl	NL4-3 (RT L74V)	RT-L74V	CEM + CEM-SS	cytopathic effect / XTT	1
C=CCO/N=C/c1cc(NC(=S)c2ccoc2C)ccc1Cl	NL4-3	RT-L74V	CEM + CEM-SS	cytopathic effect / XTT	1.43
COc1ccnc2[nH]cc(C(=O)C(=O)N3CCN(C(=O)c4ccccc4)C[C@H]3C)c12	NL4-3(GP120-R350K) Recombinant	GP120-R350K	MT-2	RT activity	0.567
CCN1c2ncc(CCOc3ccc(C(=O)Nc4ccc(C(=O)O)cc4)cc3C)cc2C(=O)N(C)c2cccnc21	-	RT-K103N Y181C	C8166	p24	>1
Cc1ccc(C2CC2)c(-c2ccc3c(c2)CCCO3)c1[C@H](OC(C)(C)C)C(=O)O	NL4-3	INSTI-resistant (IN-N155H)	MT-4	luminescence	1
CCCc1cc(=O)oc2c3c(c4c(c12)OC(C)(C)CC4)O[C@H](C)[C@@H](C)C3=O	-	RT-P236L	-	cytopathic effect / XTT	<6
CCN1c2ncc(CCOc3ccc(-c4ccc(C(=O)O)nc4)cc3C)cc2C(=O)N(C)c2cccnc21	-	RT-K103N Y181C	C8166	p24	1
Cc1occc1C(=S)Nc1ccc(Cl)c(C(=O)OCC2CC2)c1	NL4-3	RT-Y181C	CEM + CEM-SS	cytopathic effect / XTT	4
CCOC(=O)c1cc(NC(=S)OC(C)C)ccc1Cl	-	RT-L100I	CEM	syncytia	107
CCN1c2ncc(CCOc3ccc(NS(=O)(=O)C(F)(F)F)c4ccccc34)cc2C(=O)N(C)c2ccc(F)nc21	-	RT-V106A	C8166	p24	1–10
CC1=C(C(=O)Nc2cccc(C(=O)OC(C)C)c2)SCCO1	Nevirapine-resistant (RT V106A)	RT-V106A	CEM	syncytia	>2.5
CCN1c2ncc(CCOc3ccc(-c4ccc(CC(=O)O)cc4)cc3C)cc2C(=O)N(C)c2cccnc21	-	RT-K103N Y181C	C8166	p24	1
C=CCOc1cc(NC(=S)OC(C)C)ccc1Cl	-	RT-Y181C	CEM	syncytia	14.3
CN(C)C1=C(C#N)/C(=C2/C(C#N)=C(N(C)C)N(c3ccc([N+](=O)[O-])cc3)c3c2n(C)c2ccccc32)c2c(c3ccccc3n2C)N1c1ccc([N+](=O)[O-])cc1	ddI-resistant (RT-K65R)	RT-K65R	CEM + CEM-SS	cytopathic effect / XTT	0.753
CSCCOC(=S)Nc1ccc(Cl)c(C(=O)OC(C)C)c1	-	RT-E138K	CEM	syncytia	11.1
CCN1C(=O)c2c(O)c(=O)c(C(=O)NCc3c(F)cc(F)cc3F)cn2[C@H]2CCOC[C@H]21	-	E92Q/N155H	MT-2	luminescence	0.9
CCN1c2ncc(CCOc3ccc(C(=O)O)c4c3CCCC4)cc2C(=O)N(C)c2ccc(C)nc21	-	RT-K103N Y181C	C8166	p24	1
CC(C)[C@H](NC(=O)OCc1ccccn1)C(=O)N[C@@H](Cc1ccccc1)[C@@H](O)C[C@H](Cc1ccccc1)NC(=O)OCc1cccnc1	NL4-3	PR-V82T	MT-4	p24	1.875
CCN1c2ncc(CCOc3ccc(CC(=O)NN)c4ccccc34)cc2C(=O)N(C)c2ccc(Cl)nc21	-	RT-K103N Y181C	C8166	p24	1
C[C@H]1CO[C@@H]2Cn3cc(C(=O)NCc4ccc(F)cc4F)c(=O)c(O)c3C(=O)N12	NL4-3	T97A E138K G140S Q148H	CEM-GXR	GFP	268.6
CC(C)=CCOc1cc(NC(=S)c2ccoc2C)ccc1Cl	UC10/costatolide-resistant (RT K103N)	RT-K103N	CEM + CEM-SS	cytopathic effect / XTT	90
CCOC(=O)c1cc(NC(=S)OC(C)C)ccc1C	-	RT-V106A	CEM	syncytia	≥3230
Cc1cc2[nH]cnc2cc1NC(=O)COc1ccc(Cl)cc1C(=O)c1cc(F)cc(C(F)(F)F)c1	HXB2	RT-K103N V108I	HeLa + HELA CD4+	β-galactosidase	~1
CC(C)OC(=S)Nc1ccc(Cl)c(C(=O)OC(C)(C)C)c1	-	RT-L100I	CEM	syncytia	125
CC1=C(C(=O)Nc2ccc(Cl)c(C(=O)OCC3CCC3)c2)SCCO1	TSAO-resistant (RT E138K)	RT-E138K	CEM	syncytia	52.9
C/C=C/CSc1cc(NC(=S)c2ccsc2C)ccc1Cl	4XAZT+Y181C (RT D67N K70R Y181C T215Y K219Q)	RT-D67N K70R Y181C T215Y K219Q	CEM + CEM-SS	p24	2.5
CC1=C(C(=O)Nc2ccc(Cl)c(C(=O)OC(C)C)c2)SCCO1	-	RT-Y181C	CEM	syncytia	1000
CCN1c2ncc(CCOc3ccc(C(=O)O)c4c3CCN(S(=O)(=O)N(C)C)C4)cc2C(=O)N(C)c2cccnc21	-	RT-K103N Y181C	C8166	p24	1
CCCOC(=O)c1cc(NC(=S)OC(C)C)ccc1Cl	-	RT-E138K	CEM	syncytia	45.1
CCOC(=O)c1cc(NC(=O)C2=C(CC)OCCS2)ccc1Cl	TSAO-resistant (RT E138K)	RT-E138K	CEM	syncytia	27.1
CC(C)OC(=O)c1cc(NC(=S)OC(C)(C)C)ccc1Cl	-	RT-L100I	CEM	syncytia	≥16.7
Cc1cc(-c2ccc[n+]([O-])c2)ccc1OCCc1cnc2c(c1)C(=O)Nc1c(C)ccnc1N2C1CC1	-	RT-K103N Y181C	C8166	p24	>1
Cc1cc(S(N)(=O)=O)ccc1NC(=O)COc1ccc(Cl)cc1C(=O)c1cc(F)cc(F)c1	HXB2	RT-G190E	HeLa + HELA CD4+	β-galactosidase	~1
CCN1c2ncc(CCOc3ccc(NC(=O)CCC(=O)O)c4ccccc34)cc2C(=O)N(C)c2cccnc21	-	RT-K103N Y181C	C8166	p24	1–10
Cc1cc(C#N)cc(C(=O)c2cc(Cl)ccc2OCC(=O)Nc2ccc(S(N)(=O)=O)cc2C)c1	HXB2	RT-P225H	HeLa + HELA CD4+	β-galactosidase	~1
CCCCOC(=S)Nc1ccc(Cl)c(C(=O)OC(C)C)c1	-	RT-Y181C	CEM	syncytia	117
CCN1c2ncc(CCOc3ccc(C(=O)O)c4c3CCCC4)cc2C(=O)N(C)c2ccc(OC)nc21	-	RT-K103N Y181C	C8166	p24	1
CC(C)OC(=S)Nc1ccc(Cl)c(C(=O)OC(C(C)C)C(C)C)c1	-	RT-V106A	CEM	syncytia	≥14.3
Cc1cc(OCCCS(N)(=O)=O)ccc1NC(=O)COc1ccc(Cl)cc1C(=O)c1cc(F)cc(C(F)(F)F)c1	HXB2	RT-P225H	HeLa + HELA CD4+	β-galactosidase	~1
CC=CCOc1cc(NC(=S)c2ccoc2C)ccc1OC	NL4-3	RT-L74V	CEM + CEM-SS	cytopathic effect / XTT	1
Nc1ncnc2c1ncn2[C@@H]1O[C@H](OCP(=O)(O)O)C=C1F	-	RT-M184V	MT-2	cytopathic effect	0.8
C[C@H]1CO[C@@H]2Cn3cc(C(=O)NCc4ccc(F)cc4F)c(=O)c(O)c3C(=O)N12	NL4-3	M50I/R263K	CBMC	RT activity	1.9
CCN1c2ncc(CCOc3ccc(C(=O)O)c4c3CCN(C(=O)OC)C4)cc2C(=O)N(C)c2cccnc21	-	RT-V106A	C8166	p24	1–10
C=CCSc1cc(NC(=S)OC(C)C)ccc1Cl	-	RT-Y181C	CEM	syncytia	113
Cc1occc1C(=S)Nc1ccc(Cl)c(C(=O)OC(C)C)c1	NL4-3	RT-K103N	CEM + CEM-SS	cytopathic effect / XTT	183
CCN1C(=O)c2c(O)c(=O)c(C(=O)NCc3c(F)cc(F)cc3F)cn2[C@H]2COC[C@H]21	-	G140S/Q148R	MT-2	luminescence	5.9
Cc1ccc(C2CC2)c(-c2ccc3c(c2C)CCCO3)c1[C@H](OC(C)(C)C)C(=O)O	NL4-3	PI-resistant ARP-11803 (L33F/E34T/K43T/G48V/I54S/L63P/A71V/V82A)	MT-4	luminescence	1
CCN1c2ncc(CCOc3ccc(/C=C(\C)C(=O)O)c4ccccc34)cc2C(=O)N(C)c2ccc(C)nc21	-	RT-K103N Y181C	C8166	p24	1
CCCSC(=Nc1ccc(Cl)c(C(=O)OC(C)C)c1)OC(C)C	-	RT-V106A	CEM	syncytia	>15.3
Cc1cc(Cl)cc(C(=O)c2cc(Cl)ccc2OCC(=O)Nc2ccc(S(N)(=O)=O)cc2C)c1	HXB2	RT-V106I Y181C	HeLa + HELA CD4+	β-galactosidase	~1
Cc1cc(-c2ccc(CC(=O)O)cc2)ccc1OCCc1cnc2c(c1)C(=O)N(C)c1cccnc1N2	-	RT-K103N Y181C	C8166	p24	>5
Cc1cc(S(N)(=O)=O)ccc1NC(=O)COc1ccc(Cl)cc1C(=O)c1cccc(C#N)n1	HXB2	RT-P236L	HeLa + HELA CD4+	β-galactosidase	~1
COC(=O)c1cc(NC(=S)OC(C)C)ccc1Cl	-	RT-Y181C	CEM	syncytia	≥20
O=C1Nc2ccc(Cl)cc2[C@@](C#CC2CC2)(C(F)(F)F)O1	-	V106A/F227C	MT-4	-	33
CCC(CC)OC(=O)c1cc(NC(=S)OC(C)C)ccc1Cl	-	RT-Y181C	CEM	syncytia	100
CCN1c2ncc(CCOc3ccc(-n4cc(C(=O)O)nn4)cc3C)cc2C(=O)N(C)c2cccnc21	-	RT-K103N Y181C	C8166	p24	1
CC(C)OC(=O)c1cc(NC(=S)OCC2CC2)ccc1Cl	-	RT-V106A	CEM	syncytia	78.6
O=C1Nc2ccc(Cl)cc2[C@@](/C=C/C2CC2)(C(F)(F)F)N1	-	RT-V106A	-	-	<6
COC(=S)Nc1ccc(Cl)c(C(=O)OC(C)C)c1	-	RT-L100I	CEM	syncytia	≥5.27
CCN1c2ncc(CCOc3ccc(-c4ccc(C(=O)O)s4)cc3)cc2C(=O)N(C)c2cccnc21	-	RT-K103N Y181C	C8166	p24	1
CCC(=O)c1ccc(F)c([C@@H]2C[C@@H]2NC(=O)Nc2ccc(C#N)cn2)c1O	LAI	NNRTI-resistant (RT P225H)	TZM-bl	β-galactosidase / luminescence	1.1
CN1CCN(C(=O)c2ccc3c(=O)c4ccccc4[nH]c3c2)CC1	-	RT-L100I	CEM	syncytia	63.8

A second listing of 8 rows from above:

Cc1cc(C#N)cc(C(=O)c2cc(Cl)ccc2OCC(=O)Nc2ccc(S(N)(=O)=O)cc2C)c1 ; strain or isolate: HXB2 ; mutations: RT-P225H ; cell line: HeLa + HELA CD4+ ; method: β-galactosidase ; value: ~1
CC1=C(C(=O)Nc2ccc(Cl)c(C(=O)OCC3CCC3)c2)SCCO1 ; strain or isolate: TSAO-resistant (RT E138K) ; mutations: RT-E138K ; cell line: CEM ; method: syncytia ; value: 52.9
CSCCOC(=S)Nc1ccc(Cl)c(C(=O)OC(C)C)c1 ; mutations: RT-E138K ; cell line: CEM ; method: syncytia ; value: 11.1
Cc1cc(Cl)cc(C(=O)c2cc(Cl)ccc2OCC(=O)Nc2ccc(S(N)(=O)=O)cc2C)c1 ; strain or isolate: HXB2 ; mutations: RT-V106I Y181C ; cell line: HeLa + HELA CD4+ ; method: β-galactosidase ; value: ~1
CCN1c2ncc(CCOc3ccc(C(=O)O)c4c3CCCC4)cc2C(=O)N(C)c2ccc(OC)nc21 ; mutations: RT-K103N Y181C ; cell line: C8166 ; method: p24 ; value: 1
CCN1C(=O)c2c(O)c(=O)c(C(=O)NCc3ccc(F)c(Cl)c3F)cn2[C@H]2CCOC[C@H]21 ; mutations: G140S/Q148R ; cell line: MT-2 ; method: luminescence ; value: 1.8
CCN1C(=O)c2c(O)c(=O)c(C(=O)NCc3c(F)cc(F)cc3F)cn2[C@H]2COC[C@H]21 ; mutations: G140S/Q148R ; cell line: MT-2 ; method: luminescence ; value: 5.9
C[C@@H]1CCO[C@H]2Cn3cc(C(=O)NCc4ccc(F)cc4F)c(=O)c(O)c3C(=O)N12 ; strain or isolate: NL4-3 ; mutations: T97A E138K G140S Q148H ; cell line: CEM-GXR ; method: GFP ; value: 66.2

Two numbers with a dash give a range or band. An empty or dashed field is not shown. Fold resistance: result on the changed form divided by that on wild type.